From PMC12102759 (Protein Science : A Publication of the Protein Society, 2025)

Molecular target: SARS‐CoV‐2 NSP3 ADRP domain (1023–1192), tag cleaved, for FP (SARS-CoV-2, UniProt P0DTD1 1023-1192)
Test: fluorescence polarisation
Conditions: both partners purified

B1: wild‐type MBOAT1_(16–31) peptide (peptide)
peptide: TGSTYLHPLSELLGIP
B1 showed a Kd of 49 µM.
